Assay results published in US20230265217A1 (TWIST BIOSCIENCE, published 2023).

What was measured:
[1] = molecular target: SARS-CoV-2 S protein trimer [SPN-C52H7] (SARS-CoV-2); assay: Carterra SPR
[2] = molecular target: T1, SARS-CoV-2 S1 [S1N-C52H4] (SARS-CoV-2); assay: Carterra SPR
T1 construct: domain: S1

| Binder | kon [1] [M⁻¹ s⁻¹] | Kd [2] [nM] | koff [2] [s⁻¹] | kon [2] [M⁻¹ s⁻¹] |
| --- | --- | --- | --- | --- |
| Bispecific Antibody 1 (bispecific antibody, also called Bi-Ab1; Bi-Ab1_ExpiCHO) EVQLVESGGGLVQPGGSLRLSCAASGSTFSINAMGWFRQAPGKEREFVAGITSSGGYTNYADSVKGRFTISADNSKNTAYLQMNSLKPEDTAVYYCAADGVPEYSDYASGPVWGQGTLVTVSSGGGGSGGGGSASEVQLVESGGGLVQPGGSLRLSCAASGFTFSPSWMGWFRQAPGKEREFVATINEYGGRNYADSVKGRFTISADNSKNTAYLQMNSLKPEDTAVYYCARVDRDFDYWGQGTLVTVSSGGGGS[gap - human IgG1 Fc with C220S (EU numbers)] | 483000 | 0.181 | 5.39e-05 | 297000 |
| Bispecific Antibody 2 (bispecific antibody, also called Bi-Ab2; Bi-Ab2_ExpiCHO) EVQLVESGGGLVQPGGSLRLSCAASGFTFSPSWMGWFRQAPGKEREFVATINEYGGRNYADSVKGRFTISADNSKNTAYLQMNSLKPEDTAVYYCARVDRDFDYWGQGTLVTVSSGGGGS[gap - human IgG1 Fc with C220S (EU numbers)]GGGSGGGGSASEVQLVESGGGLVQPGGSLRLSCAASGSTFSINAMGWFRQAPGKEREFVAGITSSGGYTNYADSVKGRFTISADNSKNTAYLQMNSLKPEDTAVYYCAADGVPEYSDYASGPVWGQGTLVTVSS | 285000 | 1.24 | 0.000362 | 293000 |
